# PMC9239176
# Tests used:
# Assay in all cases: pull-down LC-MS/MS
# Details in all cases: pull-down: cell lysate, 4 C 4 h, protein in an extract, label: 5' biotin on strand 1
# [1] = target: T1, Formate hydrogenlyase transcriptional activator FhlA (Salmonella enterica serovar Cerro 87) (UniProt P0CL46)
# T1 sequence (looked up, limits assumed): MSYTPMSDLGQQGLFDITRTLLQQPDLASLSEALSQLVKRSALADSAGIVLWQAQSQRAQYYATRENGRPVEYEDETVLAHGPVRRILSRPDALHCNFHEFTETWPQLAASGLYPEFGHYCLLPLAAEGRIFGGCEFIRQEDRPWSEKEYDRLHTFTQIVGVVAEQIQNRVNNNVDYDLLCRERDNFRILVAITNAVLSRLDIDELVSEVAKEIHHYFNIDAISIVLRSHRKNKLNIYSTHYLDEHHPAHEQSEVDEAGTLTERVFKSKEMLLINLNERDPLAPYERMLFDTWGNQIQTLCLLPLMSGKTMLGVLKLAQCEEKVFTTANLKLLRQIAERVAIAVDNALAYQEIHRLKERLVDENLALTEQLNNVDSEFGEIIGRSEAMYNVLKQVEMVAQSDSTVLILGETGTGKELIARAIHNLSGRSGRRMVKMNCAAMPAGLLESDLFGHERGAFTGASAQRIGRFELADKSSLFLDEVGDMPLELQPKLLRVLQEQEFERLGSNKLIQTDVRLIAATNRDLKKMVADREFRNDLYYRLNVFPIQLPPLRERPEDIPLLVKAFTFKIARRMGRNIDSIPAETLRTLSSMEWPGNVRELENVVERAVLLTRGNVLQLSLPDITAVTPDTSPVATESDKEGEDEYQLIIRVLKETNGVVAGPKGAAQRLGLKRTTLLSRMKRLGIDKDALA
# [2] = target: T2, DndC (Salmonella enterica serovar Cerro 87) (UniProt E2D677)
# T2 sequence (looked up, limits assumed): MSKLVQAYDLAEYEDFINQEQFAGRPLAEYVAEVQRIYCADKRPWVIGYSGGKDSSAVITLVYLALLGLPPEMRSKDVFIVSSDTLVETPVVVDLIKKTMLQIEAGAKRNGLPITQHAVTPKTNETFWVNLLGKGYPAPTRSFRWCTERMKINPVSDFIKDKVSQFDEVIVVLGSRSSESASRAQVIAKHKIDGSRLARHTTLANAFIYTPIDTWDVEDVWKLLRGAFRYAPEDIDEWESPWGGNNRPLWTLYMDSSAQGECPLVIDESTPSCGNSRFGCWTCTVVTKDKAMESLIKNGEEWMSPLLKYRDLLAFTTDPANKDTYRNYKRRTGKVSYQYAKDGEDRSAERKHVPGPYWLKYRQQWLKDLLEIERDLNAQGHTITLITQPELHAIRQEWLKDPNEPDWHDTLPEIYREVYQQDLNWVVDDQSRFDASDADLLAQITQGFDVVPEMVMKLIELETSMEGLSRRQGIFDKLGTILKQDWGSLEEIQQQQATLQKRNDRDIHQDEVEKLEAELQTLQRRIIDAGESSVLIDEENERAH
# [3] = target: T3, Exodeoxyribonuclease VII large subunit (Salmonella enterica serovar Cerro 87) (UniProt Q8ZN58)
# T3 sequence (looked up, limits assumed): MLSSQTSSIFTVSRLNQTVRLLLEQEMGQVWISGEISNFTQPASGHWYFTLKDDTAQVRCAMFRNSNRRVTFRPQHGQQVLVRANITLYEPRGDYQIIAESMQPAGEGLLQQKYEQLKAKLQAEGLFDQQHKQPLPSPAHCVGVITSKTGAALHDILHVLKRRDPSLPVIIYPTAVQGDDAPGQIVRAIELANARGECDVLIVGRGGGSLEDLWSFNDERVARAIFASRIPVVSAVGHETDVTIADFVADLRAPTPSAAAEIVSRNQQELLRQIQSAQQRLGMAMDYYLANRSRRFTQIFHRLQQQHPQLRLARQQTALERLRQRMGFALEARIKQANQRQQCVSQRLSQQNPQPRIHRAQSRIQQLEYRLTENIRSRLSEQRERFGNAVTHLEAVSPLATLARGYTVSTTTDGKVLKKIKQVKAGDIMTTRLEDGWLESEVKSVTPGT
# [4] = target: T4, D-serine dehydratase transcriptional activator DsdC (Salmonella enterica serovar Cerro 87) (UniProt A0A0H3NTZ7)
# T4 sequence (looked up, limits assumed): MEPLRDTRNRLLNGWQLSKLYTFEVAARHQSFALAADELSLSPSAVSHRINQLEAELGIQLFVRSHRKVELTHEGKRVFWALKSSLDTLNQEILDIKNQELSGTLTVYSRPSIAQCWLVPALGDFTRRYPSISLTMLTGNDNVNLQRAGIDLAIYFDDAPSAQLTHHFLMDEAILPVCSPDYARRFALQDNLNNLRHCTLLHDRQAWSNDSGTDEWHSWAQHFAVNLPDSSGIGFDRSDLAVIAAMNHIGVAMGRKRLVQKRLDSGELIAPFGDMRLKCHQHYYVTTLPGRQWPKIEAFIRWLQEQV
# [5] = target: T5, TorR (lysate) (Salmonella enterica serovar Cerro 87) (UniProt Q8ZKZ5)
# T5 sequence (looked up, limits assumed): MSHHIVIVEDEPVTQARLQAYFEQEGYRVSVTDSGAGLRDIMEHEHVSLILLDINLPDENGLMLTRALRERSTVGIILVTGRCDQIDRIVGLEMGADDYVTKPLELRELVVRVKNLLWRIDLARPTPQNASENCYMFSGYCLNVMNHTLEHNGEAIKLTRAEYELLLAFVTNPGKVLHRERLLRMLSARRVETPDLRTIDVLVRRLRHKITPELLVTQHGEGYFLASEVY
# [6] = target: Helicase PriA (Salmonella enterica serovar Cerro 87) (UniProt Q8ZKN8)
# [7] = target: Deoxyguanosine triphosphate triphosphohydrolase (Salmonella enterica serovar Cerro 87) (UniProt P40733)
# [8] = phosphorothioate: strand 1 between G13 and A14, strand 2 between G15 and T16
sequence,measurement,setting,value
GGCCCACTACGTGAACCATCACCCTAATCA (double strand) [B34],binding signal (B34/B12 ratio),[1],5.24
same,binding signal (B34/B12 ratio),[2],0.4
same,binding signal (B34/B12 ratio),[3],2.15
same,binding signal (B34/B12 ratio),[4],0.13
same,binding signal (B34/B12 ratio),[5]; 0 spectra,0
same,binding signal (B34/B12 ratio),[6],0.22
same,binding signal (B34/B12 ratio),[7],3.58
GGCCCACTACGTGAACCATCACCCTAATCA (double strand) [B12],binding signal (normalized spectral count),"[1]; 0 spectra, phosphorothioate: strand 1 between G13 and A14, strand 2 between G15 and T16",0
same,binding signal (normalized spectral count),[2]; [8],6.1
same,binding signal (normalized spectral count),[3]; [8],7.96
same,binding signal (normalized spectral count),[4]; [8],15.5
same,binding signal (normalized spectral count),[5]; [8],6.57
same,binding signal (normalized spectral count),[6]; [8],6.57
same,binding signal (normalized spectral count),[7]; [8],3.28

# For at least one entry, the source does not settle the construct or the ends of the probe. Where cells or extracts were used, other partners may take part. Whether high values mean tight binding is not given here for every scale. For some assays here: Where a protein sequence is shown, tags need not be part of it.
